Source: PubChem BioAssay AID624099 (ICCB-Longwood, 2012)

Screen: 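Human genes that papillomavirus E2 requires to repress the HPV18 LCR promoter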 (primary screen)
Cell system: human C33A cervical carcinoma cells (HPV-negative) stably expressing BPV1 E2 and an HPV18 LCR luciferase reporter
Reagent: siRNA pool against human genes, 40 nM
Duration: 72 h
Measurement: 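Per-well luciferase luminescence, z-scored on each plate against the plate mean and SD with control wells left out, then averaged across three replicate plates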
Direction: mean z-score and z-score: higher = stronger reporter signal, weaker E2 silencing
Hit rule: 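Mean z ≥ 2 together with z ≥ 2 in two or more of the three replicates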
Here is an unselected part of about 21,000 deposited reagents. Over the whole deposit, 497 (2.4%) got an active call. 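Higher z means weaker E2 silencing; only reporter increases were scored, and knock-downs that hurt cell survival may mask genuine repressor factors.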 Unmarked entries are inactive.

HOXC12 gave mean z-score -0.07; z-score, replicate A = -0.03; z-score, replicate B = 0.11; z-score, replicate C = -0.28. After knock-down of BTN3A2 the results were mean z-score 1.07; z-score, replicate A = 0.94; z-score, replicate B = 1.23; z-score, replicate C = 1.04. With knock-down of ANKRD35, the screen gave mean z-score 0.93; z-score, replicate A = 1.5; z-score, replicate B = 1.06; z-score, replicate C = 0.24. Against JAZF1, the entry reads mean z-score -0.54; z-score, replicate A = -0.81; z-score, replicate B = -0.68; z-score, replicate C = -0.14. ACTL6B scored mean z-score -1.17; z-score, replicate A = -1.05; z-score, replicate B = -1.39; z-score, replicate C = -1.08. Against MRPL32, the entry reads mean z-score 0.42; z-score, replicate A = 0.12; z-score, replicate B = 0.42; z-score, replicate C = 0.73.

Against TRPM6, the values are mean z-score 1.61; z-score, replicate A = 1.17; z-score, replicate B = 2.02; z-score, replicate C = 1.65. For ZNF394, the values are mean z-score -0.12; z-score, replicate A = -0.09; z-score, replicate B = -0.18; z-score, replicate C = -0.1. After knock-down of TUBA3D, the record shows mean z-score 0.49; z-score, replicate A = 0.81; z-score, replicate B = 0.44; z-score, replicate C = 0.22. Knock-down of OR1F1 resulted in: mean z-score 2.75 (active); z-score, replicate A = 2.64; z-score, replicate B = 3.08; z-score, replicate C = 2.53. Against SERP1, the values are mean z-score 0.53; z-score, replicate A = 0.23; z-score, replicate B = 0.79; z-score, replicate C = 0.56. For TMOD4, the entry reads mean z-score 0.48; z-score, replicate A = 0.99; z-score, replicate B = 0.17; z-score, replicate C = 0.29.

For BNIP5, the values are mean z-score -0.12; z-score, replicate A = 0.24; z-score, replicate B = -0.16; z-score, replicate C = -0.45. With knock-down of LOC729078 (retired record), the record shows mean z-score -0.5; z-score, replicate A = -0.52; z-score, replicate B = -0.61; z-score, replicate C = -0.36. With knock-down of ZNF681 the results were mean z-score 0.4; z-score, replicate A = 0.4; z-score, replicate B = 0.77; z-score, replicate C = 0.02. After knock-down of SHANK2, the screen gave mean z-score 0.69; z-score, replicate A = 0.76; z-score, replicate B = 0.88; z-score, replicate C = 0.43. Against CNOT9, the entry reads mean z-score 0.32; z-score, replicate A = 0.18; z-score, replicate B = 0.49; z-score, replicate C = 0.28. MRPL49 showed mean z-score 0.42; z-score, replicate A = 0.39; z-score, replicate B = 0.38; z-score, replicate C = 0.5.

Knock-down of AP2M1 came out at: mean z-score -0.25; z-score, replicate A = -0.71; z-score, replicate B = 0.03; z-score, replicate C = -0.06. MCPH1 scored mean z-score -0.58; z-score, replicate A = -0.59; z-score, replicate B = -0.75; z-score, replicate C = -0.4. Knock-down of CD59 came out at: mean z-score -0.04; z-score, replicate A = 0.07; z-score, replicate B = -0.15; z-score, replicate C = -0.04.
